Pooled drug test results. Numbers come from NIAID ChemDB, via PubChem.

Shared fields: tests on isolated targets; organism: HIV-1; protein: Protease

An empty or dashed field is not shown. Fold resistance: result on the changed form divided by that on wild type. ICn is the concentration giving n% inhibition. Percent inhibition refers to the dose given; in toxicity tests it is the harm to the cells. Rows are shuffled and stem from different studies.

structure,changes,measure,tested at,method,value
O=C([C@@H]1O[C@@H]2CN(Cc3ccccc3)C(=S)[C@H]1O2)N1CCCC1,,inhibition,10 µM,FRET,0%
COC(=O)[C@@H](NC(=O)/C=C/C(=O)N[C@H](C(=O)OC)C(C)C)C(C)C,,inhibition,10 µM,absorbance,<10%
CCC(C)NC(=O)[C@@H]1CCCN1C(=O)[C@@H](O)[C@H](Cc1ccccc1)NC(=O)[C@H](CC(N)=O)NC(=O)OCc1ccccc1,,inhibition,0.05 µM,,17.4%
CCCCNC(=O)[C@@H]1O[C@]2(c3ccccc3)CN(C(c3ccccc3)c3ccccc3)C(=O)[C@H]1O2,,inhibition,1 µM,FRET,0%
CCC[C@H](NC(=O)COc1cccc2ccccc12)C(=O)N[C@@H](Cc1ccccc1)[C@H](O)C(=O)N1CSC[C@H]1C(=O)NC(C)(C)C,,IC50,,,<0.05 µM
CC(C)C(C)OC(=O)[C@H](Cc1ccccc1)NC(=O)C(=O)N[C@@H](Cc1ccccc1)C(=O)OC(C)C(C)C,,inhibition,10 µM,absorbance,37%
CCCCNC(=O)[C@H](CC(C)C)N1C[C@@H]2O[C@H](C1=O)[C@H](C(=O)N1CCCCC1)O2,,inhibition,10 µM,FRET,0%
CC(C)C[C@H](NC(=O)[C@@H](NC(=O)CCCCCCCCCCCCCCC(=O)N[C@@H](CC(N)=O)C(=O)N[C@@H](Cc1ccccc1)C(=O)O)C(C)O)C(=O)N[C@H](C(N)=O)C1CCCCC1,PR-L10I K45R I54V L63P A71V V82T L90M I93L,fold resistance,,,~1
O=C(NCCc1ccccc1)[C@@H]1O[C@]2(c3ccccc3)CN(C(c3ccccc3)c3ccccc3)C(=O)[C@H]1O2,,inhibition,10 µM,FRET,0%
CCC(=O)O[C@@H]1C[C@]2(C)[C@H]3CC=C4[C@@H]5CC(C)(C)CC[C@]5(C(=O)O)CC[C@@]4(C)[C@]3(C)CC[C@H]2C(C)(C)[C@H]1OC(=O)CC,,IC50,,FRET,>1200 µg/mL
CC(C)C[C@H](NC(=O)[C@@H](NC(=O)CCCCCCCCCCCCCCC(=O)N[C@@H](Cc1ccc(N)cc1)C(=O)N[C@@H](Cc1ccccc1)C(=O)O)C(C)O)C(=O)N[C@@H](Cc1ccccc1)C(N)=O,,IC50,,,0.64 µM
CCC(C)C(NC(=O)C1CCCN1C(=O)C(=O)N1CCCC1C(=O)NC(C(=O)NC(C(=O)OC)C(C)C)C(C)CC)C(=O)NC(C(=O)OC)C(C)C,,inhibition,10 µM,absorbance,<10%
CC(C)C[C@H](NC(=O)[C@H](CS(C)(=O)=O)NC(=O)CCCCCCCCCCCCCCC(=O)N[C@@H](CC(N)=O)C(=O)N[C@@H](Cc1ccccc1)C(=O)O)C(=O)N[C@@H](Cc1ccccc1)C(N)=O,,IC50,,,1.97 µM
CC[C@H](C)[C@H](NC(=O)[C@@H]1CCCN1C(=O)[C@H](O)[C@H](Cc1ccccc1)NC(=O)[C@H](CO)NC(=O)CCc1ccccc1)C(=O)N[C@H](C(N)=O)C(C)C,,inhibition,5 µM,,16.9%
CC1(C)CC[C@]2(C(=O)OCc3ccccc3)CC[C@]3(C)C(=CC[C@@H]4[C@@]5(C)CC[C@H](OC(=O)CCCC(=O)O)C(C)(C)[C@@H]5CC[C@]43C)[C@@H]2C1,,IC50,,FRET,>1200 µg/mL
CC[C@H](C)COC(=O)C(Cc1ccccc1)NC(=O)C(=O)NC(Cc1ccccc1)C(=O)OC[C@@H](C)CC,,inhibition,10 µM,absorbance,45%
CC(C)C[C@H](NC(=O)[C@H](Cc1ccccc1)NC(=O)CCCCCCCCCCCCCCC(=O)N[C@@H](CC(N)=O)C(=O)N[C@@H](Cc1ccccc1)C(=O)O)C(=O)N[C@@H](Cc1ccccc1)C(N)=O,PR-L10I K45R I54V L63P A71V V82T L90M I93L,fold resistance,,,~1.25
CC(C)COC(=O)[C@H](Cc1ccccc1)NC(=O)[C@H](O)[C@@H](O)C(=O)N[C@@H](Cc1ccccc1)C(=O)OCC(C)C,,inhibition,10 µM,absorbance,<10%
CC(C)C[C@H](NC(=O)[C@@H](NC(=O)CCCCCCCCCCCCCCC(=O)N[C@@H](CS(C)=O)C(=O)N[C@@H](Cc1ccccc1)C(=O)O)C(C)O)C(=O)N[C@@H](Cc1ccccc1)C(N)=O,,IC50,,,11.89 µM
CCCC(=O)O[C@@H]1C[C@]2(C)[C@H]3CC=C4[C@@H]5CC(C)(C)CC[C@]5(C(=O)O)CC[C@@]4(C)[C@]3(C)CC[C@H]2C(C)(C)[C@H]1O,,IC50,,FRET,>1200 µg/mL
CC(C)C[C@H](NC(=O)[C@H](CCC(N)=O)NC(=O)CCCCCCCCCCCCCCC(=O)N[C@@H](CC(N)=O)C(=O)N[C@@H](Cc1ccccc1)C(=O)O)C(=O)N[C@@H](Cc1ccccc1)C(N)=O,,IC50,,,>5.5 µM
CC(C)(C)CNC(=O)[C@@H]1CCCN1C(=O)[C@@H](O)[C@H](Cc1ccccc1)NC(=O)[C@H](CC(N)=O)NC(=O)OCc1ccccc1,,inhibition,5 µM,,87.6%
CC(C)C[C@H](NC(=O)[C@@H](NC(=O)CCCCCCCCCCCCCCC(=O)N[C@@H](CC(N)=O)C(=O)N[C@@H](Cc1c[nH]c2ccccc12)C(=O)O)C(C)O)C(=O)N[C@@H](Cc1ccccc1)C(N)=O,,IC50,,,5.6 µM
CC1(C)CC[C@]2(C(=O)OCc3ccccc3)CC[C@]3(C)C(=CC[C@@H]4[C@@]5(C)C[C@@H](OC(=O)CCCC(=O)O)[C@H](O)C(C)(C)[C@@H]5CC[C@]43C)[C@@H]2C1,,IC50,,FRET,>1200 µg/mL
N[C@@H](Cc1ccccc1)C(=O)N[C@@H](CO)C(=O)N[C@@H](Cc1ccccc1)[C@@H](O)C(=O)NCC1CCCCC1,,inhibition,1000 µM,,41.1%
CC(C)CNC(=O)C(CC(C)C)NC(=O)C(=O)NC(CC(C)C)C(=O)NCC(C)C,,inhibition,10 µM,absorbance,21%
CSC[C@H](NC(=O)COc1cccc2ccccc12)C(=O)N[C@@H](Cc1ccccc1)[C@H](O)C(=O)N1CSC[C@H]1C(=O)NC(C)(C)C,,inhibition,0.05 µM,,97.1%
CC(C)C[C@H](NC(=O)[C@@H](NC(=O)CCCCCCCCCCCCCCC(=O)N[C@@H](CC(N)=O)C(=O)N[C@@H](Cc1ccccc1)C(=O)O)C(C)O)C(=O)N[C@@H](Cc1ccc(C(=O)c2ccccc2)cc1)C(N)=O,,IC50,,,7.6 µM